Results of unrelated studies side by side (data: NIAID ChemDB).

Common to all: host cell toxicity; cell line: HepG2.2.15; method: MTT; endpoint: CC50

Conditions beyond the fields shown may differ between rows.

SMILES | value
O=C(CCc1ccccc1)[Se]c1ccccc1 | >100 µM
O[N+](CCc1c[nH]c2ccccc12)(Cc1ccccc1)Cc1ccccc1 | >100 µM
O=C(/C=C/c1ccc(O)c(O)c1)O[C@H]1C[C@@](O)(C(=O)O)C[C@H](O)[C@@H]1O | >1840 µM
COc1ccc(/C=C/C=C/C(=O)[Se]c2ccccc2)cc1 | >100 µM
C=CCc1cccc(Oc2cc(CC=C)cc(O)c2O)c1 | 180 µM
O=C(/C=C/c1ccc(O)c(O)c1)O[C@@H]1[C@H](O)C[C@@](O)(C(=O)O)C[C@H]1OC(=O)/C=C/c1ccc(O)c(O)c1 | >1558 µM
COc1cc2oc(=O)ccc2cc1O | 1630 µM
O=C(/C=C/c1ccccc1)[Se]c1ccccc1 | >100 µM
O=C(O)c1ccc(O)c(O)c1 | >8340 µM
CC[N+](O)(CC)CCc1c[nH]c2ccccc12 | >100 µM
O=C(/C=C/c1ccc(O)c(O)c1)OC1[C@@H](O)CC(O)(C(=O)O)C[C@@H]1O | >1580 µM
O=c1ccc2ccccc2[se]1 | >100 µM
O=C(O)/C=C/c1ccc(O)c(O)c1 | >4300 µM
O=C(/C=C/c1ccc(O)c(O)c1)O[C@@H]1[C@@H](OC(=O)/C=C/c2ccc(O)c(O)c2)C[C@@](O)(C(=O)O)C[C@@H]1O | >1558 µM
O=C(/C=C/C=C/c1ccc(Br)cc1)[Se]c1ccccc1 | >100 µM
CCOC(=O)/C=C/c1ccc(O)cc1 | 3260 µM
O=C(/C=C/C=C/c1ccc(O)c(O)c1)[Se]c1ccccc1 | >100 µM
O=c1ccc2cc(O)c(O)cc2o1 | >5450 µM
CC(C)(C)[N+](O)(CCc1c[nH]c2ccccc12)C(C)(C)C | >100 µM
C=C1CC[C@@H](O)[C@]2(C)CC[C@@H](C(C)C)[C@H](O)[C@@H]12 | 2080 µM
COC(=O)[C@]1(O)C[C@@H](O)[C@@H](O)[C@H](OC(=O)/C=C/c2ccc(O)c(O)c2)C1 | >1680 µM

Repeating the final 2 entries:

SMILES	value
C=C1CC[C@@H](O)[C@]2(C)CC[C@@H](C(C)C)[C@H](O)[C@@H]12	2080 µM
COC(=O)[C@]1(O)C[C@@H](O)[C@@H](O)[C@H](OC(=O)/C=C/c2ccc(O)c(O)c2)C1	>1680 µM

CCn is the concentration with n% toxicity to the cells.